Experimental data as given in PubChem BioAssay AID559 (PCMD, 2006).
Only a part is listed here, and it is no random draw. Activity calls are given as the source filed them. No stated cut-off is given here; in the data, active means inhibition above about 20%; inactive means the rest.

Sequences of proteins named here, by UniProt entry; tags and fusion partners are left off.
UniProt P0A8V2, whole entry: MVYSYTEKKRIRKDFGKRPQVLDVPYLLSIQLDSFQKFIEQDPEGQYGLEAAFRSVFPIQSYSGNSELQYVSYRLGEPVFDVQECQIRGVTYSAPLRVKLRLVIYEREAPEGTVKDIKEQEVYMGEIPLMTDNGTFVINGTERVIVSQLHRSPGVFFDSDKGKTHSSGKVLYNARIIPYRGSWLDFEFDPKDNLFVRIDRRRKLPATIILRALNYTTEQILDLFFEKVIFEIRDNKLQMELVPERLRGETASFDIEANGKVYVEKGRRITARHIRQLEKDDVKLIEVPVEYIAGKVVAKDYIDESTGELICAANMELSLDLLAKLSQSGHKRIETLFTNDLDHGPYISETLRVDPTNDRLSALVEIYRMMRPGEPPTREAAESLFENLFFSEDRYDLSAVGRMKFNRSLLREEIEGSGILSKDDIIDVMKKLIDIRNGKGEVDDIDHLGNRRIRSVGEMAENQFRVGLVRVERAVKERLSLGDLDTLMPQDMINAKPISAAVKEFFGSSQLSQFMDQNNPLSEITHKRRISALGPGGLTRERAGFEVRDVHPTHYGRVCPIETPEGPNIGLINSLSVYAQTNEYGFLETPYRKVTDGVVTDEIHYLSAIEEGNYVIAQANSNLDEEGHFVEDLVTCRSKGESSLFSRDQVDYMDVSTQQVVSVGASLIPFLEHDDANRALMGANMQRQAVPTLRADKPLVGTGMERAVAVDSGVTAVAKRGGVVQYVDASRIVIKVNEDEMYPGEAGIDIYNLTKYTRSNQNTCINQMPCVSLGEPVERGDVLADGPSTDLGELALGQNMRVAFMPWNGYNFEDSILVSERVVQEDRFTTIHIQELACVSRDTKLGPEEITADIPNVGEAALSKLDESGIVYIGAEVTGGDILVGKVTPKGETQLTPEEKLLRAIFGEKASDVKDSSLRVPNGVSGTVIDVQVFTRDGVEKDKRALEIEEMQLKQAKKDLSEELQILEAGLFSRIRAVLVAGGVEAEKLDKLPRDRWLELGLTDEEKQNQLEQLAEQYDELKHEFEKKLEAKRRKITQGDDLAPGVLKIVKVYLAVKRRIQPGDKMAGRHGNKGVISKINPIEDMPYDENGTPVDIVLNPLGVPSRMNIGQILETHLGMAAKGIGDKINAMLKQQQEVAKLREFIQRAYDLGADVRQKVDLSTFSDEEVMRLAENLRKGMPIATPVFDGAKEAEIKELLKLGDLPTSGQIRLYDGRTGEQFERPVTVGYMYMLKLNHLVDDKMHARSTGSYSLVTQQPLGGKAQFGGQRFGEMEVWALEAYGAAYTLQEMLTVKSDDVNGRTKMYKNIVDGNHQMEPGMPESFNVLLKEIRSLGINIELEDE

Target: DNA-directed RNA polymerase subunit beta (Escherichia coli (strain K12)) (UniProt P0A8V2)
Assay: bacterial RNA polymerase transcription inhibition – biochemical (AID 559);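 further: 0% = enzyme without compound and 100% = no enzyme blank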
Conditions: E. coli RNA polymerase, fluorescence transcription assay; stronger effect = higher value;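 tested at 10 µM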

Structure (SMILES) | inhibition
N#CC1(Nc2ccccc2)CCN(CCc2ccccc2)CC1 | inactive: 0.59%
O=C(OC1CN2CCC1CC2)C1c2ccccc2Oc2ccccc21 (stereo unspecified) | inactive: 6.4%
CCC(CO)(C(=O)OC1CN2CCC1CC2)c1ccccc1 (stereo unspecified) | inactive: 8.57%
CCOc1ncccc1C(=O)NCC1(N2CCOCC2)CCCCC1 | inactive: 2.26%
Fc1ccccc1NC1CCN(Cc2ccccc2)CC1 | inactive: 5.27%
N/C(=N\O)c1c(N)no[n+]1[O-] | inactive: 7.18%
